Laboratory results reported in US8034355.
Construct, isoform or probe ends are uncertain for at least one entry.

Amino acid sequences for entries named in this document (tags omitted). A change or cut given only in a name is not applied to a line headed by its entry.
UniProt P03523: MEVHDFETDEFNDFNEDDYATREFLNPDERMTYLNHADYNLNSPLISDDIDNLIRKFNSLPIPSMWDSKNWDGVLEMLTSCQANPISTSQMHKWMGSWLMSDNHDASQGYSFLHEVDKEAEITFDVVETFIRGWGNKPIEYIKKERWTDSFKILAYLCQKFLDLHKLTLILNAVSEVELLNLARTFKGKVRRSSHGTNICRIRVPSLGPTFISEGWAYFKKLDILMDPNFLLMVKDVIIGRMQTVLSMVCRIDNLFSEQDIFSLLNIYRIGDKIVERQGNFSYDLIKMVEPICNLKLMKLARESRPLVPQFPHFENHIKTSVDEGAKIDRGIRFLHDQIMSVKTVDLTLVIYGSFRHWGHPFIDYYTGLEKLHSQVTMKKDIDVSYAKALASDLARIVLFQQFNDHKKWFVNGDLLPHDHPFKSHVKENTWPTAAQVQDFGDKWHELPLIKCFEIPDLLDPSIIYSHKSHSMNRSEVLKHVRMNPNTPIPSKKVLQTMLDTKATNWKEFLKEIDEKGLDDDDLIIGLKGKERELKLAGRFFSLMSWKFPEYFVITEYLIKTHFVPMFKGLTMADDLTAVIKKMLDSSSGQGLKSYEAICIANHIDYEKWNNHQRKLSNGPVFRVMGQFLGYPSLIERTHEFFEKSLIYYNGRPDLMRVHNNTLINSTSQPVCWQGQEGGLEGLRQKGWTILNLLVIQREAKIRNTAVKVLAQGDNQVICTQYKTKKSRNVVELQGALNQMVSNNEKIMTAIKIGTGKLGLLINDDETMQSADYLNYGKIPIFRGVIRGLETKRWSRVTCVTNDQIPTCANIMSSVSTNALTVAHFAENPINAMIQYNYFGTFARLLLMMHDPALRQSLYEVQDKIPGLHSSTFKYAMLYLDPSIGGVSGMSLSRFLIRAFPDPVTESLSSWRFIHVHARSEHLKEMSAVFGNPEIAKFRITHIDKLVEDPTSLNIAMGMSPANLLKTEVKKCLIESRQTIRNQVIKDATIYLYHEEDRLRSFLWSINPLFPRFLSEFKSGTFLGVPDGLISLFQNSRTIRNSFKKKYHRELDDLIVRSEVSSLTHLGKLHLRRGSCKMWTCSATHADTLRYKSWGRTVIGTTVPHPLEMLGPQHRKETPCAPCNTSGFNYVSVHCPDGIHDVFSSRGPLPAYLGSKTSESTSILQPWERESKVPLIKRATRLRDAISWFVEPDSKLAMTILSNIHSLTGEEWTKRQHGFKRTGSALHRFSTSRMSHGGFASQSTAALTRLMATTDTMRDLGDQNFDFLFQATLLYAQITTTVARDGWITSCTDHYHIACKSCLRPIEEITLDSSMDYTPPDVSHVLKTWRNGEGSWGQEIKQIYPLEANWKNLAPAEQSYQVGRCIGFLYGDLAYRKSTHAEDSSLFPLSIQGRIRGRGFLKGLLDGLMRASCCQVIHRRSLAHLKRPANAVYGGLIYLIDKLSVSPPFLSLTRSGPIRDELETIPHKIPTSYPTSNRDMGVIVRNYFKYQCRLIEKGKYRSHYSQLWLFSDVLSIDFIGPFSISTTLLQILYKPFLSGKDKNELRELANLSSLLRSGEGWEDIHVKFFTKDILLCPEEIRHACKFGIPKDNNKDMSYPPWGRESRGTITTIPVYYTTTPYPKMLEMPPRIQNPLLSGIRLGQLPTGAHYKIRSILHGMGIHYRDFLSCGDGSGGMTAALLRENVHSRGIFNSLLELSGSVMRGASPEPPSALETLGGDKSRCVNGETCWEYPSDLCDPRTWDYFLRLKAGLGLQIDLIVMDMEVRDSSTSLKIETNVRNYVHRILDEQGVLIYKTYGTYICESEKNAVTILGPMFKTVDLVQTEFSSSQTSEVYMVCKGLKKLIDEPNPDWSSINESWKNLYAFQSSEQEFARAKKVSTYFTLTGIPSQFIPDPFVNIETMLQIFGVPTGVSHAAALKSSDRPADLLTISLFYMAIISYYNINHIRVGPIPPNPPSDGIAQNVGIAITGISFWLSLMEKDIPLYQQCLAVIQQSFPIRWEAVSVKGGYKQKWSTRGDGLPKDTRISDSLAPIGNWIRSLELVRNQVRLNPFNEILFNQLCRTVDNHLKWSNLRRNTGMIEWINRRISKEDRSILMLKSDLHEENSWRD

Target: VSV L protein (wild type, rVSV) (Vesicular stomatitis Indiana virus) (UniProt P03523)
Assay: binding assay
Conditions: 5' Gppp cap (7mGpppAm when fully methylated); only the motif is given

AACAG
binding result: binds
